Here are results for one molecule from article PMC11211474, “A broad neutralizing nanobody against SARS-CoV-2 engineered from an approved drug” (Cell Death & Disease, 2024).

The target in this experiment is SARS-CoV-2 RBD (319-531) (SARS-CoV-2, wild type (Wuhan-Hu-1, …, UniProt P0DTC2)). Nature of the experiment: crystal structure. Conditions: both partners purified.

B1: nanobody VHH60 (monomeric, without Fc) (VHH)
VHH: EVQLVESGGGLVQPGGSLRLSCAASGRTFRVNLMGWFRQAPGKGRELVASINGFDDITYYPDSVEGRFTISRDNAKRMVYLQMNSLRAEDTAVYYCAAYDSDYDGRLFNYWGQGTQVTVSS
For B1, the binding result is recorded as “binds”.
